Anti-infective test results gathered from many reports (values: NIAID ChemDB through PubChem).

All rows: tests on isolated targets

Blank or dashed fields: not listed here. Percent inhibition refers to the dose given; in toxicity tests it is the harm to the cells. Neighbouring rows are from separate reports. ICn is the concentration giving n% inhibition.

structure	dose	method	endpoint	protein	organism	strain	result
CCn1cc(C(=O)Nc2cc(/C(C)=N\N=C(N)N)cc(/C(C)=N/N=C(N)N)c2)c(=O)c2ccc(C)nc21	10 µM	kinase activity / radiometric	inhibition	Protein kinase B	Mycobacterium tuberculosis	-	99.6%
Cc1ccc(C)n1-c1ccc(C(=O)O)cc1	-	-	Ki	Protein tyrosine phosphatase A	Mycobacterium tuberculosis	-	8 µM
COc1c(N2CCN(Cn3c(O)c(N=NC(=O)c4ccncc4)c4cc(C)ccc43)C(C)C2)c(F)cc2c(=O)c(C(=O)O)cn(C3CC3)c12	-	-	IC50	Gyrase	Mycobacterium tuberculosis	-	5.5 µM
Cc1cc(=O)n([C@@H]2O[C@H](CO)C3CNC(=S)NC32)c(=O)[nH]1	-	-	Ki	Thymidine monophosphate kinase	Mycobacterium tuberculosis	-	21 µM
CC(C)c1c(O)ccc2c1CCC1C(C)(C)CCC[C@]21C	10 µM	-	inhibition	GTPase	Mycobacterium tuberculosis	-	24%
C/C(=N/N=C(N)N)c1cc(NC(=O)CCC(=O)Nc2cc(/C(C)=N\N=C(N)N)cc(/C(C)=N/N=C(N)N)c2)cc(/C(C)=N/N=C(N)N)c1	-	kinase activity / radiometric	IC50	Protein kinase B	Mycobacterium tuberculosis	-	0.201 µM
CCCCCCCCCCCC[C@@H]1OC(=O)[C@H](COCc2ccccc2)NC(=O)[C@H](C(C)O)NC(=O)[C@H](C(C)C)NC(=O)[C@@H]1C	-	-	IC50	Protein tyrosine phosphatase A	Mycobacterium tuberculosis	-	>30 µM
COC(=O)[C@@H](NC(=O)N(C)CC(=O)N[C@H]1CCCCNC(=O)/C=C/[C@H](Cc2c[nH]c3ccccc23)NC1=O)C(C)C	-	substrate cleavage / fluorescence	IC50	Proteasome	Mycobacterium tuberculosis	-	89.57 µM
C[C@H]1COC2(CCN(c3nc(=O)c4cc(C(F)(F)F)cc([N+](=O)[O-])c4s3)CC2)O1	-	fluorescence / absorbance	IC50	Cytochrome P450 2C19	Mycobacterium tuberculosis	-	5.04 µM
COc1c(N2CCN(CN3C(=O)C(=Nc4ccc(S(=O)(=O)Nc5ncccn5)cc4)c4cc(Cl)ccc43)C(C)C2)c(F)cc2c(=O)c(C(=O)O)cn(C3CC3)c12	-	-	IC50	Gyrase	Mycobacterium tuberculosis	-	6 µM
Cn1cc(/C=C2/C(=O)N3C(C(=O)[O-])CSC23)nn1.[Na+]	-	-	IC50	Beta-lactamase	Mycobacterium tuberculosis	TB2	0.0001 µg/mL
CCCCCCCCCCCC[C@@H]1CC(=O)N[C@@H](C(C)C)C(=O)N[C@@H](C(C)O)C(=O)N[C@@H](COCc2ccccc2)C(=O)O1	-	-	IC50	Protein tyrosine phosphatase A	Mycobacterium tuberculosis	-	>30 µM
O=C(O)[C@]1(O)C=C(c2csc3ccccc23)[C@@H](O)[C@H](O)C1	-	-	IC50	Type II dehydroquinase	Mycobacterium tuberculosis	-	13.2 µM
NNC(=O)c1ccncc1	-	-	IC50	Isocitrate lyase	Mycobacterium tuberculosis	H37RV (INH 10 ug/mL-R)	>1000 µM
C[C@]1(Cn2ccnn2)[C@H](C(=O)O)N2C(=O)C[C@H]2S1(=O)=O	-	-	IC50	Beta-lactamase	Mycobacterium tuberculosis	TB3	1 µg/mL
Cc1cc(=O)n([C@@H]2O[C@H](CO)C3CNC(=S)OC32)c(=O)[nH]1	-	-	Ki	Thymidine monophosphate kinase	Mycobacterium tuberculosis	-	3.5 µM
CCCCCCCCCCCC[C@H]1OC(=O)[C@H](COCc2ccccc2)NC(=O)[C@H](C(C)O)NC(=O)[C@H](C(C)C)NC(=O)[C@H]1C	-	-	IC50	Protein tyrosine phosphatase A	Mycobacterium tuberculosis	-	8.8 µM
COc1c(N2CCN(CN3C(=O)C(=Nc4ccc(S(=O)(=O)Nc5ncccn5)cc4)c4ccccc43)C(C)C2)c(F)cc2c(=O)c(C(=O)O)cn(C3CC3)c12	-	-	IC50	Gyrase	Mycobacterium tuberculosis	-	8 µM
CC(=O)c1c(C)c2cnc(Nc3ccc(N4CCN(C)CC4)cc3)nc2n(C2CCCC2)c1=O	-	kinase activity / radiometric	IC50	Protein kinase B	Mycobacterium tuberculosis	-	0.688 µM
Cc1ccc(C)n1-c1ccc(C(=O)O)c(C(=O)O)c1	-	-	Ki	Protein tyrosine phosphatase A	Mycobacterium tuberculosis	-	11 µM
C/C(=N/N=C(N)N)c1cc(NC(=O)C(F)(F)C(F)(F)C(F)(F)C(F)(F)C(F)(F)C(F)(F)C(F)(F)C(F)(F)C(=O)Nc2cc(/C(C)=N\N=C(N)N)cc(/C(C)=N\N=C(N)N)c2)cc(/C(C)=N\N=C(N)N)c1	-	kinase activity / radiometric	IC50	Protein kinase B	Mycobacterium tuberculosis	-	0.088 µM
Cc1cc(=O)n([C@@H]2O[C@H](CO)C3CC(=O)OC32)c(=O)[nH]1	-	-	Ki	Thymidine monophosphate kinase	Mycobacterium tuberculosis	-	27 µM
O=C(O)[C@]1(O)C=C(c2ccc3occc3c2)[C@@H](O)[C@H](O)C1	-	-	IC50	Type II dehydroquinase	Mycobacterium tuberculosis	-	2 µM
CCCOc1ccc(OCCC)c(NCc2cnc3nc(N)nc(N)c3c2C)c1	-	-	IC50	Dihydrofolate reductase	Mycobacterium avium complex	-	0.01 µM
OC[C@@H]1NC[C@H](O)[C@H]1O	-	-	IC50	Arabinofuranosyltransferase	Mycobacterium tuberculosis	-	>4000 µM
COc1c(N2CCN(Cn3c(O)c(N=NC(=O)c4ccncc4)c4ccccc43)C(C)C2)c(F)cc2c(=O)c(C(=O)O)cn(C3CC3)c12	-	-	IC50	Gyrase	Mycobacterium tuberculosis	-	4 µM
COc1cc(-c2[nH]ccc2Cl)oc1C1=C2C=C3C=C2[C@H](C(C)C)[C@H]1CCCCCCCC3	-	-	IC50	Protein tyrosine phosphatase A	Mycobacterium tuberculosis	-	>30 µM
O=C(O)[C@]1(O)C=C(c2ccccc2[N+](=O)[O-])[C@@H](O)[C@H](O)C1	-	-	IC50	Type II dehydroquinase	Mycobacterium tuberculosis	-	109 µM
OC[C@@H](O)[C@H]1NC[C@H](O)[C@H]1O	-	-	IC50	Arabinofuranosyltransferase	Mycobacterium tuberculosis	-	>4000 µM
O=C(O)[C@]1(O)C=C(c2ccc3sccc3c2)[C@@H](O)[C@H](O)C1	-	-	IC50	Type II dehydroquinase	Mycobacterium tuberculosis	-	2.85 µM
COc1c(N2CCN(Cn3c(O)c(N=NC(N)=O)c4cc(Cl)ccc43)C(C)C2)c(F)cc2c(=O)c(C(=O)O)cn(C3CC3)c12	-	-	IC50	Gyrase	Mycobacterium tuberculosis	-	4 µM

The first 4 rows once more:

structure | dose | method | endpoint | protein | organism | strain | result
CCn1cc(C(=O)Nc2cc(/C(C)=N\N=C(N)N)cc(/C(C)=N/N=C(N)N)c2)c(=O)c2ccc(C)nc21 | 10 µM | kinase activity / radiometric | inhibition | Protein kinase B | Mycobacterium tuberculosis | - | 99.6%
Cc1ccc(C)n1-c1ccc(C(=O)O)cc1 | - | - | Ki | Protein tyrosine phosphatase A | Mycobacterium tuberculosis | - | 8 µM
COc1c(N2CCN(Cn3c(O)c(N=NC(=O)c4ccncc4)c4cc(C)ccc43)C(C)C2)c(F)cc2c(=O)c(C(=O)O)cn(C3CC3)c12 | - | - | IC50 | Gyrase | Mycobacterium tuberculosis | - | 5.5 µM
Cc1cc(=O)n([C@@H]2O[C@H](CO)C3CNC(=S)NC32)c(=O)[nH]1 | - | - | Ki | Thymidine monophosphate kinase | Mycobacterium tuberculosis | - | 21 µM